Data on 6 molecules can be found in patent US7982057B2, “Compound of stemphones and production thereof” (The Kitasato Institute, priority 2006, dated 2011).

This data set relates to Jurkat cells. In words: Cytotoxicity on Jurkat cells by MTT method. Format: cell-based. Particulars: fold reduction of toxicity. Here is the method:
Method for Evaluation of Cytotoxicity
Evaluation of cytotoxicity on Jurkat cells were performed by MTT method (Mosmaan, et al. J. Immunol. Methods, 65: 55-63, 1983). Cultured liquid of Jurkat cells were suspended in RPMI-1640 medium (Iwaki & Co., Ltd., Japan) to give suspension with 4×10^5 cells/ml, and the suspension 0.05 ml was seeded in each well of 96 well microplate (Corning Corp.). Subsequently, stemphone D substance, stemphone E substance, stemphone E1 substance, stemphone E2 substance, stemphone E3 substance or stemphone F substance (0.05 ml, 2% methanol/PRMI-1640 medium) was added and incubated at 37° C. for 48 hours in 5% carbon dioxide gas incubator. Then MTT reagent (SIGMA Inc.) dissolved in PBS to give concentration 5.5 mg/ml, 0.01 ml was added and reacted at 37° C. for 4 hours. After the reaction was performed, cell-lysing solution (40%, N-dimethylformamide (Kanto Chemical Co., Inc., Japan), 20% sodiumdodecyl sulfate (Wako Pure Chemical Industries, Ltd., Japan) 2% acetic acid (Kanto Chemical Co., Inc., Japan), 0.03% hydrochloric acid (Kanto Chemical Co., Inc., Japan) in purified water) 0.09 ml was added, and stirred at room temperature for 2 hours, then absorption at 550 nm was measured by using ELx 808 (BIO-TEK Instruments Inc.). As compared with stemphone C substance previously reported by the present inventor (ratio: 1.0), about 4-fold to 60-fold reduction of toxicity were confirmed.
(Tetrazolium assays rely on reduction of a dye to a coloured formazan, in cell work by metabolically active cells.)

Molecules are shown by their SMILES.

Turning to `C/C=C(\C)C(OC(C)=O)C(C)C1=CC(=O)C2=C(OC3(C)CCC4OC(C(C)(C)O)CC(O)C4(C)C3=C2)C1=O` (stereo not drawn) [stemphone E3 substance], the “Ratio (IC50 compared with stemphone C substance, ratio 1.0)” value (“Ratio” below) turned out to be 6.0. With `C/C=C(\C)C(OC(C)=O)C(C)C1=CC(=O)C2=C(OC3(C)CCC4OC(C(C)(C)O)CC(O)C4(C)C3C2O)C1(O)CC(C)=O` (stereo not drawn) [stemphone F substance] the figure was 6.3. With `C/C=C(\C)C(OC(C)=O)C(C)C1=CC(=O)C2=C(OC3(C)CCC4OC(C(C)(C)O)CC(O)C4(C)C3C2)C1=O` (stereo not drawn) [stemphone D substance] the figure was 4.2.

In the case of `C/C=C(\C)C(OC(C)=O)C(C)c1cc(O)c2c(c1O)OC1(C)CCC3OC(C(C)(C)O)CC(O)C3(C)C1C2O` (stereo not drawn) [stemphone E substance], the “Ratio” value came to 8.5.

For `C/C=C(\C)C(OC(C)=O)C(C)c1cc(OC)c2c(c1O)OC1(C)CCC3OC(C(C)(C)O)CC(O)C3(C)C1C2O` (stereo not drawn) [stemphone E1 substance], the “Ratio” value is 60.9. With `C/C=C(\C)C(OC(C)=O)C(C)c1cc(O)c2c(c1O)OC1(C)CCC3OC(C(C)(C)O)CC(O)C3(C)C1=C2` (stereo not drawn) [stemphone E2 substance] the figure was 10.3.
